Measured values from several laboratories, pooled; numbers as filed in NIAID ChemDB.

Common to all: enzyme or target tests; organism: Hepatitis C virus; protein: NS5B polymerase

a–b is a range or a potency band. Inhibition is in % at the dose shown (toxicity tests: loss of growth or viability). Blank or dashed fields: not listed here. Neighbouring rows are from separate reports. ICn is the concentration giving n% inhibition.

SMILES | measure | tested at | strain | value
O=C(N[C@H](C(=O)O)c1c[nH]c2ccc(O)cc12)c1ccc2c(c1)nc(C1CCCO1)n2C1CCCCC1 | IC50 | - | - | 1–5 µM
C[C@@H](NC(=O)c1ccc2c(c1)nc(-c1ccoc1)n2C1CCCCC1)C(=O)Nc1ccc(SCC(=O)O)cc1 | IC50 | - | - | 0.5–5 µM
O=C(N[C@H](C(=O)O)c1c[nH]c2ccc(O)cc12)c1ccc2c(c1)nc(-c1ccc(S(=O)(=O)O)o1)n2C1CCCCC1 | IC50 | - | - | 1–5 µM
O=C(O)c1ccc2c(c1)nc(-c1ccc3nc(-c4cnn(-c5ccccc5)c4)ccc3c1)n2C1CCCCC1 | inhibition | 33 µM | - | 99.77%
CCC[C@]1(CC(=O)O)OCCc2c1[nH]c1c(C)ccc(C#N)c21 | IC50 | - | 4A genotype 1B | 0.4 µM
O=C(O)C[C@H](Cc1ccc(-c2nn[nH]n2)cc1)NC(=O)c1ccc2c(c1)nc(-c1ccoc1)n2C1CCCCC1 | IC50 | - | - | <1 µM
CC(NC(=O)c1ccc2c(c1)nc(-c1ccoc1)n2C1CCCCC1)C(=O)Nc1ccc(C(=O)O)cc1 | IC50 | - | - | 0.5–5 µM
NC(=O)CC(NC(=O)c1ccc2c(c1)nc(-c1ccc3nc(-c4ccccc4)cnc3c1)n2C1CCCCC1)C(=O)O | inhibition | 33 µM | - | 75.95%
O=C(NC1(C(=O)Nc2ccc3[nH]c(C(=O)O)c(I)c3c2)CCNCC1)c1ccc2c(c1)nc(-c1ccoc1)n2C1CCCCC1 | IC50 | - | - | 0.5–5 µM
Cc1cc(-c2ccc3cc(-c4nc5cc(C(=O)O)ccc5n4C4CCCCC4)ccc3n2)c(-c2ccccc2)s1 | inhibition | 33 µM | - | 97.1%
O=C(O)/C=C/c1ccc(NC(=O)C2(NC(=O)c3ccc4c(c3)nc(-c3cccc5c3OCO5)n4C3CCC3)CCCC2)cc1 | IC50 | - | - | 0.5–5 µM
O=C(N[C@@H](Cc1ccc(O)cc1)C(=O)O)c1ccc2c(c1)nc(-c1ccoc1)n2C1CCCCC1 | IC50 | - | - | <1 µM
O=C(O)c1ccc2c(c1)nc(-c1ccc3nc(-c4ccccc4)cc(Nc4ccc(Cl)cc4)c3c1)n2C1CCCCC1 | inhibition | 33 µM | - | 97.59%
O=C(NC1(C(=O)Nc2ccc3ccc(=O)oc3c2)CCCC1)c1ccc2c(c1)nc(-c1ccoc1)n2C1CCCCC1 | IC50 | - | - | 0.5–5 µM
O=C(O)Cc1cccc(NC(=O)c2ccc3c(c2)nc(-c2ccoc2)n3C2CCCCC2)c1 | IC50 | - | - | 10–25 µM

The last 2 rows once more:

SMILES | measure | tested at | strain | value
O=C(NC1(C(=O)Nc2ccc3ccc(=O)oc3c2)CCCC1)c1ccc2c(c1)nc(-c1ccoc1)n2C1CCCCC1 | IC50 | - | - | 0.5–5 µM
O=C(O)Cc1cccc(NC(=O)c2ccc3c(c2)nc(-c2ccoc2)n3C2CCCCC2)c1 | IC50 | - | - | 10–25 µM